Results of unrelated studies side by side (data: NIAID ChemDB).

All rows: tests on isolated targets; species: HIV-1; protein: Reverse transcriptase; read-out: inhibition

Inhibition is in % at the dose shown (toxicity tests: loss of growth or viability). Rows are shuffled and stem from different studies. An empty or dashed field is not shown.

smiles,dose,strain or isolate,read by,result
O=C(NCCc1ccccc1)Nc1nc2ccc(Cl)cc2s1,10 µg/mL,-,nucleotide incorporation,18%
COc1cccc2cc(CNC3CCCCC3)c(=O)[nH]c12,20 µM,-,RT activity / absorbance,-32.8%
S=C(NCCc1ccccn1)Nc1ccncn1,3.3 µM,-,-,36%
O=c1[nH]c2ccccc2cc1CNC1CCCCC1,20 µM,-,RT activity / absorbance,-20.8%
NCC1OC(n2cnc3c(N)ncnc32)C(OP(=O)(O)OCC2OC(n3cnc4c(N)ncnc43)C(OP(=O)(O)OCC3OC(n4cnc5c(N)ncnc54)C(O)C3O)C2O)C1O,100 µM,IIIB,RT activity,77.5%
O=C(NCCc1ccccc1)Nc1nc2c(Cl)cccc2s1,1 µg/mL,-,nucleotide incorporation,6%
S=C(NCCc1ccccn1)Nc1cccnn1,330 µM,-,-,99%
C=C(C)C1CC[C@]2(C(=O)O)CC[C@]3(C)C(CCC4[C@@]5(C)C[C@@H](O)[C@H](C(=O)[O-])C(C)(C)C5CC[C@]43C)C12,200 µg/mL,-,RT activity,97.1%
CCCCCCCCCCCCCCCC(=O)NCC1OC(n2cnc3c(N)ncnc32)C(OP(=O)(O)OCC2OC(n3cnc4c(N)ncnc43)C(OP(=O)(O)OCC3CC(O)C(n4cnc5c(N)ncnc54)O3)C2O)C1O,100 µM,IIIB,RT activity,60.2%
CC1(C)C(=O)CC[C@]2(C)C3=C(C[C@H](C4=CCOC4=O)C3)C(=O)C[C@@H]12,200 µg/mL,-,RT activity / fluorescence,58.4%
COc1ccc(-c2csc(N3C(=N)SC4C3=NN(c3ccccc3)C4c3ccc(Br)cc3)n2)cc1,100 µg/mL,-,RT activity / absorbance,57.85%
COc1c(C)c(O)c(C(C)=O)c(O)c1Cc1c(O)c2c(c(C(C)=O)c1O)OC(C)(C)C=C2,10 µg/mL,-,RT activity,75%
COc1ccc2[nH]c(=O)c(CN(C(=O)c3ccccc3)C3CC3)cc2c1,20 µM,-,RT activity / absorbance,-9.9%
Cc1c(C)c2c(c(C)c1OC(=O)CCC(=O)OC1CC(COP(=O)(O)OC3CC(COP(=O)(O)OC4CC(CO)OC4n4cnc5c(N)ncnc54)OC3n3cnc4c(N)ncnc43)OC1n1cnc3c(N)ncnc31)CCC(C)(CCCC(C)CCCC(C)CCCC(C)C)O2,300 µM,-,-,70%
CC[C@H](/C=C/[C@@H](C)[C@H]1CC[C@H]2[C@@H]3CC=C4C[C@@H](O[C@@H]5O[C@H](CO)[C@@H](O)[C@H](O)[C@H]5O)CC[C@]4(C)[C@H]3CC[C@]12C)C(C)C,200 µg/mL,-,RT activity,0%
C=C1CC[C@@H](OC(=O)CCC(=O)OC2CC(COP(=O)(O)OC3CC(COP(=O)(O)OC4CC(CO)OC4n4cnc5c(N)ncnc54)OC3n3cnc4c(N)ncnc43)OC2n2cnc3c(N)ncnc32)C/C1=C/C=C1\CCC[C@]2(C)[C@@H]([C@@H](C)/C=C/[C@H](C)C(C)C)CC[C@@H]12,300 µM,-,-,85%
COc1cccc2cc(CN(C(=O)c3ccccc3)C3CC3)c(=O)[nH]c12,20 µM,-,RT activity / absorbance,-4%
O=C(NCCc1ccccc1)Nc1ccccc1Cl,10 µg/mL,-,nucleotide incorporation,50%
C=C1CC[C@@H](OC(=O)CCC(=O)OCC2CC(OP(=O)(O)OCC3CC(OP(=O)(O)OCC4CC(O)C(n5cnc6c(N)ncnc65)O4)C(n4cnc5c(N)ncnc54)O3)C(n3cnc4c(N)ncnc43)O2)C/C1=C/C=C1\CCC[C@]2(C)[C@@H]([C@@H](C)/C=C/[C@H](C)C(C)C)CC[C@@H]12,300 µM,-,-,14%
COc1ccc2[nH]c(=O)c(CNC3CCCCC3)cc2c1,20 µM,-,RT activity / absorbance,-11.4%
NOCc1c(F)cccc1Cl,0.8 µg/mL,-,nucleotide incorporation,0.9%
Nc1ncnc2c1ncn2C1OC(COP(=O)(O)OC2C(O)C(COP(=O)(O)OC3C(O)C(CO)OC3n3cnc4c(N)ncnc43)OC2n2cnc3c(N)ncnc32)C(F)C1Cl,300 µM,-,-,99.7%
CCOc1ccc2nc(NC(=O)NCCc3ccccc3)sc2c1,1 µg/mL,-,nucleotide incorporation,5%
N=C1SC2C(=NN(c3ccccc3)C2c2ccccc2Cl)N1c1nc(-c2ccc(Cl)cc2)cs1,100 µg/mL,-,RT activity / absorbance,62.77%
CCCCCCCCCCCCCCCCOCC(COC(=O)CCC(=O)OC1CC(COP(=O)(O)OC2CC(COP(=O)(O)OC3CC(CO)OC3n3cnc4c(N)ncnc43)OC2n2cnc3c(N)ncnc32)OC1n1cnc2c(N)ncnc21)OCCCCCCCCCCCCCCCC,300 µM,-,-,96%
CSc1ncc(C(N)=O)c(Nc2ccc3cn[nH]c3c2)n1,1 µg/mL,-,ELISA,62%
COc1ccc2[nH]c(=O)c(CNC3CC3)cc2c1,20 µM,-,RT activity / absorbance,-30%
O=C(NCCc1ccccc1)Nc1ncccn1,0.1 µg/mL,-,nucleotide incorporation,5%
COc1ccc2[nH]c(=O)c(CN(C(=O)c3ccccc3)C3CCCC3)cc2c1,20 µM,-,RT activity / absorbance,5.1%
COc1c(C)c(O)c(C(C)=O)c(O)c1Cc1c(O)c(CC=C(C)C)c(O)c(C(C)=O)c1O,10 µg/mL,-,RT activity,67%
O=c1[nH]c2ccccc2cc1CNC1CC1,20 µM,-,RT activity / absorbance,-12.4%
COc1ccc(-c2csc(N3C(=N)SC4C3=NN(c3ccccc3)C4c3ccc(C)cc3)n2)cc1,100 µg/mL,-,RT activity / absorbance,89.8%
COc1cccc2cc(CNC3CC3)c(=O)[nH]c12,20 µM,-,RT activity / absorbance,3.1%
[N-]=[N+]=N[C@@H]1[C@H](F)[C@@H](COP(=O)(O)O[C@@H]2[C@H](O)[C@@H](COP(=O)(O)O[C@@H]3[C@H](O)[C@@H](CO)O[C@H]3n3cnc4c(N)ncnc43)O[C@H]2n2cnc3c(N)ncnc32)O[C@H]1n1cnc2c(N)ncnc21,300 µM,-,-,99.7%

For reference, 4 entries again:

S=C(NCCc1ccccn1)Nc1cccnn1 ; dose: 330 µM ; result: 99%
Nc1ncnc2c1ncn2C1OC(COP(=O)(O)OC2C(O)C(COP(=O)(O)OC3C(O)C(CO)OC3n3cnc4c(N)ncnc43)OC2n2cnc3c(N)ncnc32)C(F)C1Cl ; dose: 300 µM ; result: 99.7%
COc1c(C)c(O)c(C(C)=O)c(O)c1Cc1c(O)c2c(c(C(C)=O)c1O)OC(C)(C)C=C2 ; dose: 10 µg/mL ; read by: RT activity ; result: 75%
O=c1[nH]c2ccccc2cc1CNC1CC1 ; dose: 20 µM ; read by: RT activity / absorbance ; result: -12.4%